Experimental data as given in patent US20050085441A1, “Use of soluble monovalent oligosaccharides as inhibitors of HIV-1 fusion and replication” (priority 2002, published 2005).

Tested on: HIV-1 M-tropic strain Ba-L
Assay: Replication of strain Ba-L in MT-2 cell clone transfected with CCR5
Type: cell-based
Settings: MT-2 cell clone transfected with CCR5 co-receptor

OC[C@H]1O[C@H](O[C@@H]2[C@H](O)[C@@H](O)[C@H](O[C@H]3[C@H](O)[C@@H](O)C(O)O[C@@H]3CO)O[C@@H]2CO)[C@H](O)[C@@H](O)[C@H]1O (stereo partly drawn) [globotriose, galactose α1-4galactose β1-4glucose]
inhibition of viral replication of strain Ba-L: not inhibitory

OC[C@H]1O[C@@H](O[C@H]2[C@H](O)[C@@H](O)[C@H](O)O[C@@H]2CO)[C@H](O)[C@@H](O)[C@H]1O [lactose, o-β-D-galactopyranosyl-(1-4)-β-D-glucopyranose]
inhibition of viral replication of strain Ba-L: not inhibitory
